A mixed list of measured activities; the numbers were collected in NIAID ChemDB.

All rows: tests in culture

Rows are shuffled and stem from different studies. Percent inhibition refers to the dose given; in toxicity tests it is the harm to the cells. ECn is the concentration giving n% inhibition of infection, replication or growth. An empty or dashed field is not shown.

CCCCN1C(=O)CS/C1=N/N=C1\C(=O)Nc2ccc([N+](=O)[O-])cc21 ; species: Yellow fever virus ; cell line: VERO ; measure: EC50 ; result: >100 µg/mL
Nc1nc(=O)n([C@@H]2C=C(CO)[C@@H](O)[C@H]2O)cc1F ; species: Variola virus ; strain: BSH ; cell line: MK2 ; measure: EC50 ; result: 0.51 µg/mL
Cn1cc(NC(=O)c2cc(NC(=O)CN=C(N)N)cn2C)c(C(=O)NCCC(=N)N)c1 ; species: Vaccinia virus ; strain: Noguchi ; cell line: BSC-1 ; measure: inhibition ; tested at: 100 µg/mL ; result: 100%
C=CCNC(=S)N=Nc1c(O)n(CN2CCOCC2)c2ccc([N+](=O)[O-])cc12 ; species: Yellow fever virus ; cell line: VERO ; measure: EC50 ; result: 11 µg/mL
N=c1c2ncn([C@@H]3O[C@H](CO)[C@@H](O)[C@H]3O)c2ncn1OCc1cc(F)cc(F)c1 ; species: Variola virus ; strain: Isolate Bangladesh ; cell line: LLC-MK2 ; measure: EC50 ; result: >100 µg/mL
Clc1ccc(C2COc3ccccc3C2)cc1 ; species: Poliovirus ; strain: IB (TYPE 2) ; cell line: HEP-2 ; measure: EC50 ; result: >10 µM
O=[N+]([O-])c1ccc2[nH]c(O)c(N=NC(=S)Nc3ccccc3)c2c1 ; species: Yellow fever virus ; cell line: VERO ; measure: EC50 ; result: <0.8 µg/mL
Brc1ccc(C2=Cc3ccccc3OC2)cc1 ; species: Poliovirus ; strain: TYPE 2 ; cell line: HEP-2 ; measure: EC50 ; result: >10 µM
CC1S/C(=N/N=C2\C(=O)Nc3ccc([N+](=O)[O-])cc32)N(c2ccccc2)C1=O ; species: Yellow fever virus ; cell line: VERO ; measure: EC50 ; result: >20 µg/mL
Cn1cc(NC(=O)c2cc(NC(=O)c3cc(NC=O)cn3C)cn2C)cc1C(=O)NCCC(=N)N ; species: Vaccinia virus ; strain: Noguchi ; cell line: BSC-1 ; measure: inhibition ; tested at: 25 µg/mL ; result: 89%
c1ccc(C2COc3ccccc3C2)cc1 ; species: Poliovirus ; strain: II (TYPE 2) ; cell line: HEP-2 ; measure: inhibition ; tested at: 10 µM ; result: 36%
Nc1ccn(C[C@@H](CO)OCP(=O)(O)O)c(=O)n1 ; species: Monkeypox virus ; cell line: VERO ; measure: EC50 ; result: 11 µg/mL
Clc1ccc2c(c1)CC(c1ccccc1)CO2 ; species: Poliovirus ; strain: II (TYPE 2) ; cell line: HEP-2 ; measure: EC50 ; result: >10 µM
O=c1[nH]cnc2c1ncn2[C@@H]1C=C(CO)[C@@H](O)[C@H]1O ; species: Monkeypox virus ; strain: MPX ; cell line: VERO ; measure: EC50 ; result: >100 µg/mL
Nc1ccn(C[C@H]2COP(=O)(O)CO2)c(=O)n1 ; species: Variola virus ; strain: Isolate MINN124 ; cell line: VERO ; measure: EC50 ; result: 9 µg/mL
CC1S/C(=N/N=C2\C(=O)Nc3ccc([N+](=O)[O-])cc32)N(c2ccc(Br)cc2)C1=O ; species: Yellow fever virus ; cell line: VERO ; measure: EC50 ; result: 1.96 µg/mL

2 of the rows above, restated:

| compound | species | strain | cell line | measure | tested at | result |
|---|---|---|---|---|---|---|
| CCCCN1C(=O)CS/C1=N/N=C1\C(=O)Nc2ccc([N+](=O)[O-])cc21 | Yellow fever virus |  | VERO | EC50 |  | >100 µg/mL |
| Nc1nc(=O)n([C@@H]2C=C(CO)[C@@H](O)[C@H]2O)cc1F | Variola virus | BSH | MK2 | EC50 |  | 0.51 µg/mL |